Measurements taken from patent US4803223A (priority 1985, dated 1989).

What was measured:
[1] = system: Ehrlich ascites carcinoma; assay: Ehrlich ascites carcinoma in mice (increase of lifespan); format: in vivo, mice (CD2F1-strain Swiss, female); details: for T/C (%): Table 1, Ehrlich carcinoma (E); for T/C / survivors: 60 days observation
P388 leukemia = assay: P388 lymphatic leukemia in mice (increase of lifespan); format: in vivo, CDF1-strain mice (male); details: for T/C (%): Table 1, P388 leukemia (P); for T/C: i.p., daily for 9 days, 30 days observation
[2] = system: Walker carcinosarcoma 256; assay: Walker carcinosarcoma 256 ascites tumor in rats (increase of lifespan); format: in vivo, Sprague-Dawley rats (male); details: for T/C (%): Table 1, Walker carcinosarcoma 256 (W); for T/C / survivors: over one month
ascites hepatoma AH130 = assay: Ascites hepatoma AH130 in rats, iv/iv (increase of lifespan); details: 25 mg/kg, i.v., 60 days
M5076 ovarian tumor = assay: M5076 ovarian cancer in mice (increase of lifespan); details: i.p., five times at intervals of 4 days, 60 days
B16 melanoma = B16 melanoma in mice (increase of lifespan); details: i.p., daily for 9 days, 60 days observation
[3] = 50 mg/kg, i.p., daily for 9 days
[4] = 100 mg/kg, i.p., daily for 9 days
[5] = 10 mg/kg, i.p., 5 consecutive days
[6] = 25 mg/kg, i.p., 5 consecutive days
[7] = 50 mg/kg, i.p., 5 consecutive days

SMILES: O=C(NCCBr)Nc1ccc(N(CCCl)CCCl)cc1
- T/C (%) ([1]; 50 mg/Kg): > 392%
- T/C (%) (P388 leukemia; 25 mg/Kg): 158%
- T/C (%) (P388 leukemia; 50 mg/Kg): 218%

SMILES: O=C(NCCCl)Nc1ccc(N(CCBr)CCBr)cc1
- T/C (%) ([1]; 50 mg/Kg): 294%
- T/C (%) (P388 leukemia; 3 mg/Kg): 196%
- T/C (%) (P388 leukemia; 50 mg/Kg): 186%

SMILES: O=C(NCCCl)Nc1ccc(N(CCI)CCI)cc1
- T/C (%) (P388 leukemia; 12.5 mg/Kg): 167%
- T/C (%) (P388 leukemia; 50 mg/Kg): 151%
- T/C (%) ([2]; 100 mg/Kg): > 361%

SMILES: O=C(NCCI)Nc1cccc(N(CCCl)CCCl)c1
- T/C (%) ([2]; 50 mg/Kg): 205%

SMILES: O=C(NCCBr)Nc1ccc(N(CCBr)CCBr)cc1
- T/C (%) ([1]; 50 mg/Kg): > 392%
- T/C (%) (P388 leukemia; 6 mg/Kg): 213%
- T/C (%) (P388 leukemia; 50 mg/Kg): 167%
- T/C (%) ([2]; 100 mg/Kg): > 361%

SMILES: O=C(NCCF)Nc1ccc(N(CCCl)CCCl)cc1
- T/C (%) ([1]; 25 mg/Kg): 294%
- T/C (%) (P388 leukemia; 25 mg/Kg): 135%

SMILES: O=C(NCCBr)Nc1ccc(N(CCI)CCI)cc1
- T/C (%) (P388 leukemia; 25 mg/Kg): 195%
- T/C (%) (P388 leukemia; 50 mg/Kg): 142%
- T/C (%) ([2]; 75 mg/Kg): > 361%

SMILES: O=C(NCCF)Nc1cccc(N(CCBr)CCBr)c1
- T/C (%) ([1]; 25 mg/Kg): 229%

SMILES: O=C(NCCCl)Nc1ccc(N(CCCl)CCCl)cc1
- T/C [1, 3]: more than 392%
- survivors [1, 3]: three mice survived out of six
- T/C [1, 4]: 294%
- survivors [1, 4]: two mice out of six survived
- mean survival time (MST) ([1]; 100 mg/kg, i.p., daily for 9 days, control 15.3 days): 45.0 days
- T/C (P388 leukemia; 25 mg/kg): 167%
- T/C (P388 leukemia; 50 mg/kg): 189%
- T/C [2, 5]: more than 361%
- survivors [2, 5]: all six rats survived
- T/C [2, 6]: more than 361%
- survivors [2, 6]: all six rats survived
- T/C [2, 7]: more than 361%
- survivors [2, 7]: all six rats survived
- cure of Walker carcinosarcoma 256 ([2]; 10, 50 and 25 mg/kg, i.p., 5 consecutive days): completely cured
- survivors (ascites hepatoma AH130; seven times (days 3, 5, 7, 11, 15, 20, 24)): four rats out of six survived
- T/C (ascites hepatoma AH130; seven times, control 17.0 days): more than 353%
- T/C (M5076 ovarian tumor; 100 mg/kg): more than 214%
- survivors (M5076 ovarian tumor; 100 mg/kg): seven mice survived out of ten
- T/C (M5076 ovarian tumor; 200 mg/kg): more than 214%
- survivors (M5076 ovarian tumor; 200 mg/kg): five mice survived out of ten
- T/C (B16 melanoma; 50 mg/kg): 171%
- T/C (B16 melanoma; 100 mg/kg): 177%
